Results of single-concentration screens

Mtb cholesterol medium: 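Growth of Mycobacterium tuberculosis over 4 days (cholesterol / DPPC medium with tyloxapol); the read-out is not stated. Concentration: 500 µM. Higher reads as more growth inhibition (inferred: compounds with an IC50 in retests scored well above the rest). Size under these conditions: about 18,000 compounds, about 900 of them at 50% or above in at least one test.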
Mtb glucose medium: 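Phenotypic screen: M. tuberculosis growth, glucose 7H9 medium, 3 days; the read-out is not stated. Tested at 500 µM. Higher reads as more growth inhibition (inferred: compounds with an IC50 in retests scored well above the rest). Of about 18,000 compounds tested this way, about 1,400 (7.9%) reached 50% or more in at least one test.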

Each number is a percent effect as filed. How 0% and 100% were set is not recorded. Most values in the screen are low, and negative values occur. The entries come from a sample that favours strong results. A dash means the value is not listed here; it may have been measured.

| Compound | Mtb cholesterol medium | Mtb glucose medium |
|---|---|---|
| `Cc1cc(S(=O)(=O)N[C@@H]2COCC[C@H]2O)c(Cl)cc1F` | -6.491% | - |
| `CC(=O)c1cc(CN2CCN(C(=O)N(C)C)CC2)cs1` | 8.233% | - |
| `CC(=O)N1CCc2c(F)ccc(F)c2C1` | - | -0.3803% |
| `O=C(Cc1ccc(F)cc1)N1CCNCC1` | - | 2.166% |
| `Cc1noc(COc2cccc(C#N)c2)n1` | 30.87% | - |
| `COC(CN)C(C)(C)C` (centres unmarked) | -11.27% | - |
| `Cc1ccoc1C(=O)N(C)C1CCN(C)CC1` | - | 9.009% |
| `Cc1cc(C)c(CNC(=O)CCc2nccs2)c(=O)[nH]1` | - | -14.17% |
| `NCc1ccncc1OCc1ccccc1` | 39.27% | 55.5% |
| `CN(CC1(O)CCCC1)c1ncccn1` | -2.927% | - |
| `COc1cccc(C(=O)NCc2ccoc2C)n1` | - | 55.27% |
| `COc1ccc(C(=O)Nc2nonc2NC(C)=O)cc1` | 52.87% | 51.48% |
| `COC(=O)c1snc(C(=O)NCc2ccccc2)c1N` | - | 40.67% |
| `CCN(CCC#N)C(=O)CNc1cc(F)ccc1F` | - | 6.664% |
| `CN1CCN(c2ccc(N)nc2)CC1` | - | -18.55% |
| `CN(CC(N)=O)CC(=O)NCc1cc(Br)cs1` | - | 33.72% |
| `Cc1ccccc1OCCCNC(=O)NC[C@@H](C)O` | 24.36% | 52.49% |
| `CCO[C@H]1CN(c2ncc(F)cn2)C[C@@H]1O` | - | -1.345% |
| `COCCN(C)Cc1ccc(C(=O)NC2CC2)cc1` | - | -0.2487% |
| `OC1CCN(c2ccccn2)CC1` | 0.5004% | -2.135% |
| `CN(Cc1nnc[nH]1)C(=O)Cc1cccc(Br)c1` | -11.86% | - |
| `CCCN(CCC)S(=O)(=O)N1CCNCC1` | 0.5007% | 14% |
| `CCCS(=O)(=O)NCC(O)C1CCCC1` (centres unmarked) | - | 51.04% |
| `Cc1ccccc1CNCCS(=O)(=O)N1CCOCC1` | - | -2.891% |
| `C=C(C)CNC(=O)Nc1cc(F)cc(OC)c1` | -0.955% | 45.71% |
| `CC(C)c1cc(C(=O)N2CC[C@@H](N)C2)nn1C(C)(C)C` | 20.36% | 50.85% |
| `COc1ccc(CSc2nnc(N)[nH]2)c(Cl)c1` | 37.34% | 36.95% |
| `O=c1[nH]c2ccc(S(=O)(=O)CCO)cc2o1` | - | -10.11% |
| `NCC1CC(=O)N(C2CCCC2)C1` (centres unmarked) | - | 10.69% |
| `CCc1cccc2c1N(CC(N)=O)CCC2` | - | 2.017% |
| `CCCn1ccc(NC(=O)c2cccc(C#N)c2)n1` | - | 56.78% |
| `NC1CS(=O)(=O)Cc2ccccc21` (centres unmarked) | - | 0.6493% |
| `Cn1nc(C(=O)N2CCCC2c2ccco2)ccc1=O` (centres unmarked) | - | -12.49% |
| `NCCN1C(=O)c2ccccc2S1(=O)=O` | -7.09% | -3.057% |
| `CCOCCC(=O)N1C[C@@H](N)C[C@H]1C(=O)N(CC)CC` | - | 3.707% |
| `CC(C)(N)C(C)(C)CO` | - | 0.7919% |
| `CCN1CCCC1Cn1c(=O)[nH]c2ccccc2c1=O` (centres unmarked) | 1.365% | 6.631% |
| `CC(=O)NCCNC(=O)CSCc1cccc(Cl)c1` | 11.9% | - |
| `CCN(CC(N)=O)Cc1ccc(N2CCCC2)nc1` | - | 38.47% |
| `CCc1ccc(C(=O)NC(C)c2cccnc2)o1` (centres unmarked) | - | 53.68% |
| `N#Cc1cc(Br)ccc1NCCC(=O)N1CCOCC1` | - | 53.28% |
| `CCc1ccc(N(C(C)C(=O)NC)S(C)(=O)=O)cc1` (centres unmarked) | - | 17.47% |
| `CCOCCC(=O)N1c2ccccc2OCC1C` (centres unmarked) | - | 52.35% |
| `COc1cccc(CNCCNc2cccc(C)n2)c1` | 78.11% | 70.64% |
| `CN(C)Cc1ccccc1C(=O)N[C@@H]1CCOC[C@H]1O` | - | -2.874% |
| `COCC(C)NC(=O)c1ccc(OC)c(F)c1` (centres unmarked) | 33% | 38.27% |
| `CCN1C[C@H](NC(=O)c2snnc2C(C)C)[C@@H](OC)C1` | - | -0.6144% |
| `OC1CCC(Nc2ncccc2Cl)CC1` (centres unmarked) | - | 38.37% |
| `CCn1ccnc1CN1CCC(=O)NCC1C` (centres unmarked) | - | -0.9947% |
| `N#Cc1ccc(S(=O)(=O)NCCCN)cc1C(F)(F)F` | 39.87% | 61.79% |
| `NC(=O)NC(=O)CCn1cc(I)cn1` | 10.33% | - |
| `OCCN1CCN(Cc2nnnn2C2CC2)CC1` | - | 2.866% |
| `Cc1ccc(CS(=O)(=O)N2CCC(C(N)=O)CC2)cc1` | - | -10.83% |
| `COCC(C)C(=O)Nc1ccc2c(c1)CCCN2` (centres unmarked) | -20.25% | 9.504% |
| `Cc1ccc(C(N)CF)cc1` (centres unmarked) | - | 7.678% |
| `NCc1cccc(-n2ccnn2)c1` | 5.698% | - |
| `NC(=O)C1CCN(CCSc2ccccc2F)CC1` | 13.94% | - |
| `CCc1ccc(C(=O)Nc2ccncc2)o1` | -0.2183% | - |
| `CC(C)n1cc(C(=O)NCCC2CN(C)CCO2)cn1` (centres unmarked) | - | 3.467% |
| `O=C(c1ccc(Cl)cc1)N1CCCNCC1` | - | 29.94% |
| `CN1CCCC1CC(=O)NCc1ccc(CN)cc1` (centres unmarked) | -9.357% | - |
| `CC(=O)c1ccccc1NC(=O)CN1CC[C@H](N)C1` | 22.53% | 56.22% |
| `COC(=O)NC(C)C(=O)NCC1(Cn2ccnc2)CC1` (centres unmarked) | 5.783% | - |
| `COCC1CNCCO1` (centres unmarked) | -6.68% | - |
| `CC1COCCN1C(=O)NCc1nnc2ccccn12` (centres unmarked) | - | -0.355% |
| `Cc1cc(NC(=O)Cn2cnc(C#N)n2)no1` | - | 15.22% |
| `CCN(CC)C(=O)Nc1cc(C(N)=O)ccc1C` | - | 16.27% |
| `Cc1csc(N2CCN(C(=O)c3scnc3C)CC2)n1` | - | 33.72% |
| `COc1ncccc1-c1csc(NCCSC)n1` | 52.03% | 50.32% |
| `CCN(C)CCNC(=O)c1cc(C2CC2)[nH]n1` | - | 5.065% |
| `Cn1nc2n(c1=O)CCN(S(C)(=O)=O)CC2` | - | -4.857% |
| `O=C(Cn1cccnc1=O)N1CCCC1c1cccs1` (centres unmarked) | - | -5.427% |
| `CCOC(=O)NCCC(=O)Nc1cccnc1` | - | 4.586% |
| `CNC(C)(C)C(=O)OC` | - | -1.436% |

The last 9 entries again:

Compound	Mtb cholesterol medium	Mtb glucose medium
Cc1cc(NC(=O)Cn2cnc(C#N)n2)no1	-	15.22%
CCN(CC)C(=O)Nc1cc(C(N)=O)ccc1C	-	16.27%
Cc1csc(N2CCN(C(=O)c3scnc3C)CC2)n1	-	33.72%
COc1ncccc1-c1csc(NCCSC)n1	52.03%	50.32%
CCN(C)CCNC(=O)c1cc(C2CC2)[nH]n1	-	5.065%
Cn1nc2n(c1=O)CCN(S(C)(=O)=O)CC2	-	-4.857%
O=C(Cn1cccnc1=O)N1CCCC1c1cccs1 (centres unmarked)	-	-5.427%
CCOC(=O)NCCC(=O)Nc1cccnc1	-	4.586%
CNC(C)(C)C(=O)OC	-	-1.436%

The values are deposited in ChEMBL (CHEMBL3988442, “University of Dundee, Small-Polar-MMV Screening Library” (2021)).